Pooled drug test results. Numbers come from NIAID ChemDB, via PubChem.

All rows: growth or infection tests; organism: Mycobacterium tuberculosis

MIC bound: limit read from a one-dose screen.

smiles | cell line | dose | strain or isolate | mutations | read by | measure | value
Cc1ccc(S(=O)(=O)Oc2ccc3oc4cccc(NCCN(C)C)c4c(=O)c3c2)cc1 | - | - | H37Rv | - | BACTEC | MIC bound | >12.5 µg/mL
C=C(NC(=O)c1csc(-c2nc3c(cc2O)-c2nc(cs2)C(=O)N[C@@H]([C@@H](C)O)C(=O)N/C(=C(\C)OC)c2nc(cs2)C(=O)N[C@@H]2c4nc(cs4)C(=O)N[C@@H](COC(=O)c4c5c6c(cccc6n4O)COC(=O)[C@@H](O[C@H]4C[C@](C)(O)[C@H](N(C)C)[C@H](C)O4)[C@H]2OC5)c2nc-3cs2)n1)C(N)=O | - | - | Clinical isolate 10367 | - | broth dilution | MIC | ≤2.5 µM
Cc1ccc2c(c1)Sc1ccc(N=NN(C)C)cc1N2C | - | 12.5 µg/mL | H37Rv | - | BACTEC | inhibition | 17%
CC1CN(c2cncc(C#N)n2)CC(C)O1 | - | - | H37Rv | - | - | MIC | 500 µg/mL
COC1=C[C@@H](C)[C@@H]2C[C@H]3OC(=O)C[C@H]4[C@](C)(O)[C@H](OC)[C@@H](OC(C)=O)[C@H]([C@@]2(C)C1=O)[C@@]34C | - | 12.5 µg/mL | H37Rv | - | - | inhibition | 5%
O=[N+]([O-])c1ccc(-c2nc3ccc(F)cc3[nH]2)o1 | - | - | H37Rv | - | BACTEC | MIC bound | ≤12.5 µg/mL
CC1CCCCN1c1cncc(C(=O)NO)n1 | - | - | Isoniazid-resistant | - | - | MIC | 62.5 µg/mL
CCOC(=O)c1ccc2c(c1)nc(-c1ccccn1)n2CCc1ccncc1 | - | - | H37Rv | - | BACTEC | MIC bound | >6.25 µg/mL
Cn1c(NNc2nc(Nc3ccc(Cl)cc3)nc(Nc3ccc(Cl)cc3)n2)nc(-c2ccc(Cl)cc2)c(C#N)c1=O | - | - | H37Rv | - | - | MIC | 12.5 µg/mL
CC1CCCCN1c1cncc(C(=O)NN)n1 | - | - | H37Rv | - | - | MIC | 250 µg/mL
Cn1c(NNc2nc(NCc3ccccc3)nc(NCc3ccccc3)n2)nc(-c2ccc(Cl)cc2)c(C#N)c1=O | - | 12.5 µg/mL | H37Rv | - | - | inhibition | 84%
CC(C)(C)OC(=O)N1CCN(c2cc3nc4n(c(=O)c3cc2F)-c2ccc(I)cc2C4=O)CC1 | - | - | H37Rv | - | - | MIC | >4 µg/mL
C[N+](C)(C)CC(=O)N/N=C(\Cc1nc2c3c(ccc2[nH]c1=O)C(=O)c1ccccc1C3=O)C(=O)Nc1ccc(Cl)c(Cl)c1.[Cl-] | - | - | H37Rv | - | BACTEC | MIC bound | >12.5 µg/mL
O=C1NC(NNC(=O)c2ccncc2)=N/C1=C\c1cccc(Cl)c1 | - | - | Erdman | - | - | MIC | 0.78 µg/mL
CC1CN(c2cncc(C(=O)NO)n2)CC(C)O1 | - | - | Isoniazid-resistant | - | - | MIC | 500 µg/mL
OC[C@H]1O[C@@H](n2cnc3cc(Cl)c(Cl)cc32)[C@H](O)[C@@H]1O | - | - | H37Rv | - | BACTEC | MIC bound | >6.25 µg/mL
Cc1ccc2c(c1)C(=O)c1nc3ccccc3c(=O)n1-2 | - | - | H37Rv | - | - | MIC | 0.5 µg/mL
O=C(O)/C(=C\c1ccc(Cl)cc1)n1nnc2ccccc21 | - | 12.5 µg/mL | H37Rv | - | - | inhibition | 0%
CO[C@H]1/C=C/O[C@@]2(C)Oc3c(C)c(O)c4c(O)c(c(/C=N/N5CCN(C)CC5)c(O)c4c3C2=O)NC(=O)/C(C)=C\C=C\[C@H](C)[C@H](O)[C@@H](C)[C@@H](O)[C@@H](C)[C@H](OC(C)=O)[C@@H]1C | - | - | Aoyama B | - | - | MIC | 5 µg/mL
NNC(=O)c1ccncc1 | - | - | Clinical isolate 16116 | - | broth dilution | MIC | ≤0.2 µM
CCOP(=O)(OCC)/C(=C\n1c(=S)[nH]c2ccc([N+](=O)[O-])cc21)C(=O)OC | - | 6.25 µg/mL | H37Rv | - | resazurin | inhibition | -79%
CCCCCCCCc1ccc2c(c1)C(=O)c1nc3ccncc3c(=O)n1-2 | - | - | 10038RFLP:W (MDR) | - | - | MIC | ≤0.015 µg/mL
CCOc1ccc(-n2c(-c3ccc(F)cc3)cs/c2=N\NC(=O)COc2cnccn2)cc1 | - | - | H37Rv | - | - | MIC | 10.2 µg/mL
NC(=O)/C(=C\c1ccc(Br)cc1)n1nnc2ccccc21 | - | - | H37Rv | - | - | EC50 | >12.5 µg/mL
Brc1ccc(Nc2nnc3nc(-c4ccccc4)c(-c4ccccc4)nn23)cc1 | - | 12.5 µg/mL | H37Rv | - | BACTEC | inhibition | 98%
Cc1cc(-c2cc3c(cc2F)c(=O)c(C(=O)O)cn3C2CC2)cc(C)n1 | - | - | 126-4 | - | - | MIC | 4 µg/mL
NC(=O)/C(=C\c1ccc(C(F)(F)F)cc1)n1nnc2ccccc21 | - | - | H37Rv | - | - | EC50 | >12.5 µg/mL
CCOC(=O)C1=NN(c2ccccc2)C(=O)C1N=Nc1ccc(S(=O)(=O)Nc2onc(C)c2C)cc1 | - | 12.8 µg/mL | H37Rv | - | BACTEC | inhibition | 80%
CCCCCCc1ccc2c(c1)C(=O)c1nc3ccncc3c(=O)n1-2 | - | - | H37Rv | - | - | MIC | 0.06 µg/mL
COC1=C[C@@H](C)[C@@H]2C[C@H]3OC(=O)C[C@H]4[C@](C)(O)[C@@H]5OCO[C@H]5[C@H]([C@@]2(C)C1=O)[C@@]34C | - | 12.5 µg/mL | H37Rv | - | - | inhibition | 9%
Cc1ccc(Nc2nc(NNc3nc(-c4ccccc4)c(C#N)c(=O)n3C)nc(Nc3ccc(C)cc3C)n2)c(C)c1 | VERO | - | H37Rv | - | - | MIC | 6.25 µg/mL
CC1CN(c2cncc(C(N)=S)n2)CC(C)O1 | - | - | Isoniazid-resistant | - | - | MIC | 31.2 µg/mL
Cn1c(NNc2nc(Nc3ccccn3)nc(Nc3ccccn3)n2)nc(-c2ccc(Cl)cc2)c(C#N)c1=O | - | - | H37Rv | - | - | EC50 | >12.5 µg/mL
O=C1c2cc([N+](=O)[O-])ccc2-n2c1nc1ccccc1c2=O | - | - | H37Rv | - | - | MIC | 0.015 µg/mL
CCCCn1c(-c2ccccc2)cs/c1=N\NC(=O)COc1cnccn1 | - | - | H37Rv | - | - | MIC | 21 µg/mL
COC(=O)c1cncc(N2CC(C)OC(C)C2)n1 | - | - | Ethionamide-resistant | - | - | MIC | 500 µg/mL
NNC(=O)c1ccncc1 | - | - | XDR-83 | - | resazurin | MIC | 8 µg/mL
O=C1c2cc(I)ccc2-n2c1nc1ncccc1c2=O | - | - | TN913RFLP:C (DRUG sensitive) | - | - | MIC | 0.06 µg/mL
CO/C(C)=C1/NC(=O)[C@H]([C@@H](C)O)NC(=O)c2csc(n2)-c2cc(O)c(-c3nc(C(=O)NCCCN4CCOCC4)cs3)nc2-c2csc(n2)[C@@H]2COC(=O)c3c4c5c(cccc5n3O)COC(=O)[C@@H](O[C@H]3C[C@](C)(O)[C@H](N(C)C)[C@H](C)O3)[C@@H](OC4)[C@H](NC(=O)c3csc1n3)c1nc(cs1)C(=O)N2 | - | - | Clinical Isolate 913 | - | broth dilution | MIC | ≤2.5 µM
N#Cc1ccccc1NC(=O)C(=O)c1c(O)c2ccccc2oc1=O | - | 12.5 µg/mL | H37Rv | - | BACTEC | inhibition | -3%
CC(C)Cn1c(-c2ccc(O)cc2)cs/c1=N\NC(=O)COc1cnccn1 | - | - | H37Rv | - | - | MIC | 7.1 µg/mL
COC1=C[C@@H](C)[C@@H]2C[C@H]3OC(O)C[C@H]4[C@](C)(O)[C@H](OC)[C@@H](O)[C@H]([C@@]2(C)C1=O)[C@@]34C | - | 12.5 µg/mL | H37Rv | - | - | inhibition | 8%
NC(=O)c1c[n+](Cc2ccccc2)ccn1.[Br-] | - | 12.5 µg/mL | H37Rv | - | BACTEC | inhibition | 0%
CC1=CC(=O)[C@@H](O)[C@]2(C)[C@@H]3[C@]45COC(=O)[C@@]3(O)C(C)[C@@H]4CC(=O)O[C@@H]5C[C@@H]12 | - | 12.5 µg/mL | H37Rv | - | - | inhibition | 15%
CC1CCCCN1c1cncc(C(N)=S)n1 | - | - | Isoniazid-resistant | - | - | MIC | 62.5 µg/mL
CO[C@H]1/C=C/O[C@@]2(C)Oc3c(C)c(O)c4c(=O)c(c5oc6cc(N7CCN(CC(C)C)CC7)cc(=O)c6nc5c4c3=C2O)NC(=O)/C(C)=C\C=C\[C@H](C)[C@H](O)[C@@H](C)[C@@H](O)[C@@H](C)[C@H](OC(C)=O)[C@@H]1C | - | - | 2257 (rifampicin-susceptible) | - | - | MIC | 0.0078 µg/mL
Cc1ccc(/C=C(\C(N)=O)n2nc3ccccc3n2)cc1 | - | 12.5 µg/mL | H37Rv | - | - | inhibition | 0%
COc1cccc(Nc2nc(NNc3nc(-c4ccc(Cl)cc4)c(C#N)c(=O)n3C)nc(Nc3cccc(OC)c3)n2)c1 | - | - | H37Rv | - | - | MIC | >12.5 µg/mL
CSC(=S)N/N=C(/C)Cc1ccccn1 | - | - | TAC-R | - | - | MIC | 1.6 µg/mL
CC(C)CNC(=S)NNC(=O)COc1cnccn1 | - | - | H37Rv | - | - | MIC | 49 µg/mL
Cc1ccc(Nc2nc(NNc3nc(-c4ccc(Cl)cc4)c(C#N)c(=O)n3C)nc(Nc3ccc(C)cc3C)n2)c(C)c1 | - | - | H37Rv | - | - | MIC | >12.5 µg/mL
O=C(COc1cnccn1)NNC(=S)Nc1ccc(Cl)cc1 | - | - | H37Rv | - | - | MIC | 74 µg/mL
CCc1[nH]nc(C(N)=O)c1N=NN(C)C | - | - | H37Rv | - | BACTEC | MIC bound | >12.5 µg/mL
Cn1c(NNc2nc(Nc3ccc(F)c(Cl)c3)nc(Nc3ccc(F)c(Cl)c3)n2)nc(-c2ccc(Cl)cc2)c(C#N)c1=O | VERO | - | H37Rv | - | - | MIC | >12.5 µg/mL
O=C1NC(NNC(=O)c2ccncc2)=N/C1=C\c1ccc(Cl)cc1 | - | - | ATCC 35822 (isoniazid-resistant) | - | - | MIC | 100 µg/mL
Nc1nc(N)c2nc3c(=O)[nH]c(=O)[nH]c3nc2n1 | - | - | H37Rv | - | BACTEC | MIC bound | >12.5 µg/mL
Cn1c(NNc2nc(Nc3cccc(Cl)c3)nc(Nc3cccc(Cl)c3)n2)nc(-c2ccccc2)c(C#N)c1=O | VERO | - | H37Rv | - | - | MIC | 12.5 µg/mL
CC(=O)Nc1ccc(/C=N/NC(N)=S)cc1F | - | - | H37Rv | Ciprofloxacin-resistant | resazurin | MIC90 | <0.1 µg/mL
COc1ccccc1NC(=O)/C(C=NC(=S)c1ccncc1)=C(\C)O | - | - | H37Rv | - | resazurin | MIC bound | >6.25 µg/mL
OCNC(=S)c1cncc(-n2ccnc2)n1 | - | - | Capreomycin-resistant | - | - | MIC | 500 µg/mL
O=[N+]([O-])c1ccc2oc([N+](=O)[O-])cc2c1 | - | 6.25 µg/mL | H37Rv | - | resazurin | inhibition | 100%
COc1cccc2c(=O)n3c(nc12)C(=O)c1cc(S(=O)(=O)N2CCN(C)CC2)ccc1-3 | - | - | H37Rv | - | - | MIC | 2 µg/mL
Nc1ccc(C(=O)Nc2cccc(C(=O)Nc3ccc4c(O)c(N=Nc5ccc(N=Nc6ccc(S(=O)(=O)O)cc6)cc5)c(S(=O)(=O)O)cc4c3)c2)cc1 | - | - | H37Rv | - | BACTEC | MIC | ≥12.5 µg/mL
O=C1NC(NNC(=O)c2ccncc2)=N/C1=C\c1ccccc1Cl | - | - | H37Rv | - | - | MBC | 50 µg/mL
CC(C)Cn1c(-c2ccc(Cl)cc2)cs/c1=N\NC(=O)COc1cnccn1 | - | - | H37Rv | - | - | MIC | 7.2 µg/mL
O=C1c2cc(OC(F)(F)F)ccc2-n2c1nc1ccccc1c2=O | - | - | H37Rv | - | - | MIC | 0.03 µg/mL
N#Cc1cncc(-n2cncn2)n1 | - | - | Isoniazid-resistant | - | - | MIC | 250 µg/mL
O=C1c2cccc([N+](=O)[O-])c2C(=O)c2c1oc1ccc3ccccc3c21 | - | 12.5 µg/mL | H37Rv | - | BACTEC | inhibition | 95%
O=C1NC(=NCc2ccccc2)N/C1=C\c1ccc(Cl)cc1 | VERO | - | H37Rv | - | resazurin | MIC | >12.5 µg/mL
C/C(=C1/N=C(c2ccccc2)OC1=O)c1cccs1 | - | - | H37Rv | - | BACTEC | MIC | >12.5 µg/mL
C[C@@H]1C[C@H](O)C(=O)[C@]2(C)[C@H]3[C@H](O)C(=O)[C@H](C)[C@@H]4CC(=O)O[C@H](C[C@@H]12)[C@]34C | - | 12.5 µg/mL | H37Rv | - | - | inhibition | 12%
CCCCCCC(C)c1ccc2c(c1)C(=O)c1nc3ccncc3c(=O)n1-2 | - | - | H37Rv | - | - | MIC | 0.015 µg/mL
CCOC(=O)C(=O)C1CC(c2ccccc2)=NNC1=O | - | - | H37Rv | - | resazurin | MIC bound | >6.25 µg/mL
N#C/C(=C/c1cccc2ccccc12)n1nnc2ccccc21 | - | - | H37Rv | - | - | EC50 | >12.5 µg/mL
CO[C@H]1/C=C/O[C@@]2(C)Oc3c(C)c(O)c4c(O)c(c(/C=N/N5CCN(C)CC5)c(O)c4c3C2=O)NC(=O)/C(C)=C\C=C\[C@H](C)[C@H](O)[C@@H](C)[C@@H](O)[C@@H](C)[C@H](OC(C)=O)[C@@H]1C | - | - | Clinical isolate 18460 | Rifampicin- and isoniazid-resistant | broth dilution | MIC | ≤10 µM
O=C(O)C(=O)O.OC(CNCCc1ccccc1)CN1c2ccccc2Sc2ccccc21 | - | - | MDR-699 | - | resazurin | MIC | 8 µg/mL

Inhibition is in % at the dose shown (toxicity tests: loss of growth or viability). MIC50, MIC90 and the like: level of inhibition, or share of isolates inhibited. An empty or dashed field is not shown. Lines come from different laboratories, so protocols vary. ECn is the concentration giving n% inhibition of infection, replication or growth.